B1: BD56-1557 (protein)
chain 1: EVQLVQSGAEVTKPGESLKISCKGSGYSFSTYWIAWVRQMPGEGLEWMGIIYPGDSDTRYSPSFQGQVTISADKSISTAYLQWSSLKASDTAIYYCARLYDYVGFDPWGQGTLVTVSS
chain 2: SSELTQDPAVSVALGQTVRITCQGDSLRSYYASWYQQKPRQAPILVIYDKNKRPSGIPDRFSGSSSGNTASLTITGAQAEDEADYYCNSRNNSANHYVFGTGTKVTVL
B2: BD56-1613 (protein)
chain 1: B1 chain 1 with T12K, S30T, Y32F, A35G, E43K, Y52F, S84R, Y100F
chain 2: B1 chain 2 with V18I, R40G, N51D, T75S, N91D, S93D, A94D
B3: BD56-1542 (protein)
chain 1: QVQLVESGGGVVQPGRSLRLSCVASGFTFSNYGMHWVRQAPGKGLEWVAVIWYDGSNKFYTDSVKGRLTISRDSSKNTVYLQMNSLRAEDTAVYFCAKQGGPYCSGGNCLGYLDYWGQGTLVTVSS
chain 2: DIQMTQSPSSLSASVGDRVTITCQASQDISNYLNWYQQKPGKAPRLLIFGASNLETGVPSRFSGSGSGTDFTFTISRLQPEDIATYYCQRYDNLPPTFGGGTKVEIK
B4: BD56-1598 (protein)
chain 1: QVQLQESGPGLVKPGQTLSLTCTVSGGSISSASNYWSWIRQPAGKGLEWIGRIYTSGSANYKPSLKGRLTISLDTSRNQFSLKLNSVTASDTAVYYCACGGDFRYFDLWGRGTLVTVSS
chain 2: NFMLTQPHSVSESPGKTVTISCTRSSGSIAGNFVQWYQHRPGSAPITLIYEDDLRSSGVPDRFSGSIDSSSNSASLTISGLKAEDEAEYSCQSYHSGNVVFGGGTKLTVL
B5: BD56-1576 (protein)
chain 1: EVQLVQSGAEVKKPGESLKISCKHSGYSLTSYWIGWVRQMPGKGLEWMGIIFPGDSDTRYSPSFQGHVTISADKSITTAYLQWASLKASDTAMYYCARLPGLGELSSHFDYWGQGTRVTVSS
chain 2: DIQMTQSPSSLSASVGDRVTITCRASQRISTYLNWYQQKPGKVPKLLIYAASSLQSGVPSRFSGSGSGTDFTLTISSLQPEDFATYYCQQTFNAPMNTFGQGTTLDIK
B6: BD56-1600 (protein)
chain 1: QVQLVQSGAGVKRPGASVKVSCKASGYSFTSYYVHWVRQAPGQRLEWMGTINPSGGSTTYAQNFQGRVTMTSDTSTSTVYMELISLRSEDTAVYYCARDSYYYDSGYYRHYNWFDPWGQGTLVTVSS
chain 2: NFMLTQPHSVSESPGKTVTISCTGSGGDIGSNYVQWYQQRPGSAPTTVIYKNNQRPSGVPDRFSGSIDSSSNSASLTISGLKSEDEAEYYCQSYDSSNQVFGGGTKLAVL
B7: BD56-1581 (protein)
chain 1: QVQLQESGPGLVKPSETLSLTCTVSGGSISSYYWSWIRQPAGQGLEWIGRMYISGSTNYNPSLKSRVTMSVDTSKSQFSLNLSSVTAADTAVYYCARGTITAGPDDYFYYYGMDVWGPGTTVTVSS
chain 2: SYELTQPPSVSVSPGQTARITCSGDALPKQYAYWFQQKPGQAPLLVIHKDSERPSGIPERFSGSSSGTTVTLTISGVQAEDEADYYCQSADSSGTYCVFGGGTKLTVL
B8: BD56-1549 (protein)
chain 1: QVQLQESGPGLVKPSETLSVTCAVSGGPINNYYWNWIRQPPGKGLEWIGYIYSSGSTKYHPSLKSRVTISVDTSKNQFSLKVRSVTAADTAVYYCVREGPTGFYDSWGQGTLVTVSS
chain 2: EIVLTQSPGTLSLSPGERATLSCRASQSVSSGYLAWYQQKPGQAPRLLIYGASSRATGISDRFRGSGSGTDFTLTISRLEPEDFAVYYCQQYGGSEYTFGQGTKLEIK
B9: BD56-1605 (protein)
chain 1: EVQLVESGGGLVQPGGSLRVSCAASGFIFNSYWMTWVRQAPGKGLEWVANIKQDGSETNYVDSVKGRFTISRDNAKNSLYLEMRSLRSEDTAVYHCARDPVDGYIDYWGQGTLVTVSS
chain 2: EIVMTQSPATLSASPGERATLSCRASDYISSSLAWYQQTPGQAPRLLIYGASTRATGVPARFSGSGSGTEFTLTISSLQSEDFAVYSCHQYHSWPPWTFGQGTKVEIK
B10: BD56-1579 (protein)
chain 1: EVQLVESGGALVQPGGSLRLSCAASGFSFSTYWMHWVRHAPGTGLVWVSRIKSDGRSTNYADSVKGRFTISRDNAKNTLYLQMNSLRAEDTAVYYCTRVVMGASPLGYFDSWGQGTLVTVSA
chain 2: NFMLTQPHSVSESPGKTVTISCTGSSGSIASNYVQWYQQRPGSAPTTVIYEDNQRPSGVPDRFSGSIDSSSNSASLTISGLKTEDEADYYCQSYDIYNPAVVFGGGTKLTVL
B11: BD56-1594 (protein)
chain 1: EVQLVESGGGLVQPGRSLRLSCSASGFTFDDYGMHWVRQGPGTGLEWVSGINWNSDSVAYADSVKGRFTISRDNAKNFLYLQMNSLRTEDTAMYYCAKDMRVGFGDYFDYWGQGTLVTVSA
chain 2: SYVLTQPPSVSVAPGKTARITCGGNNIGSKSVHWYQQKPGQAPVVVIHYDSDRPSGIPERFSGSNSGNTATLTISRVEAGDEADYYCQVWDSSSDHPYVFGAGTKVTVL
B12: BD56-1552 (protein)
chain 1: EVQLVESGGGLVQPGGSLRLSCAASGIIVRANYMNWVRQAPGKGLECVSVIYPGGSTFYADSVRGRFTISRDNSKNTLYLQMNSLRVEDTAVYYCARDQGEETFDIWGQGTMVTVSS
chain 2: DIQLTQSPSFLSASVGDRVTITCRASQDIGSYLAWYQQKPGKAPRLLIYAASTLQSGVPSRFSGSDSGTEFTLTISSLQPEDFATYYCQQLNSYPPLFGGGTKVEIK
B13: BD56-1585 (protein)
chain 1: B12 chain 1 with V12A, A23E, A31R, N35H, C47W, I51M, R64K, Q81R, V87A, E102D
chain 2: B12 chain 2 with D17N, S31T, R45K, S56T, D66G, I75V, Y94S

Where a chain is given by its changes, count along the chain named. Human monoclonal antibodies against the spike receptor-binding domain (heavy:light variable regions). IC50 against pseudoviruses bearing the spike of naturally observed variants; lower = stronger; >10 µg/ml means not reached at the top dose. No active / inactive call. The stated detection limit is 0.0005 µg/ml; values near or below 0.001 µg/ml lie at the floor of the assay. Bounds are passed on as bounds.

The target in one assay is SARS-CoV-2 Omicron BA.1 spike pseudovirus. As to the kind of experiment: pseudovirus neutralization IC50; higher = weaker neutralization. Here is the method: (§1)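 Single-round VSV luciferase pseudovirus mixed with antibody dilutions for 1 h and put on Huh-7 cells for about a day; IC50 from the dose curve.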
Regarding B1, the “pseudovirus neutralization IC50” value turned out to be 1.59 µg/mL.
On the same count and under the same terms, next, B2: 0.565 µg/mL; B3: greater than 10 µg/mL; B4: 0.0846 µg/mL.
With B5, the “pseudovirus neutralization IC50” value is greater than 10 µg/mL.
Still for that read-out and setting: next, B6: 0.839 µg/mL; B7: 0.814 µg/mL; B8: greater than 10 µg/mL.
The same measure, in the same setting: next, B9: greater than 10 µg/mL.
Still for that read-out and setting: to B10 belongs 0.462 µg/mL; to B11, greater than 10 µg/mL; to B12, 0.00416 µg/mL.
With B13, the “pseudovirus neutralization IC50” value is 0.00712 µg/mL.

Another assay deals with SARS-CoV-2 Omicron BA.2 spike pseudovirus. The assay is described as above. Here is the method:
as §1
As for B1, the “pseudovirus neutralization IC50” value came to 2.14 µg/mL.
On the same count and under the same terms, to B2 belongs 0.636 µg/mL; to B3, greater than 10 µg/mL.
On the same count and under the same terms, next, B4: 0.11 µg/mL; B5: greater than 10 µg/mL.
The same measure, in the same setting: to B6 belongs 0.943 µg/mL; to B7, 0.78 µg/mL.
Turning to B8, the “pseudovirus neutralization IC50” value was greater than 10 µg/mL.
Take B9: the “pseudovirus neutralization IC50” value was greater than 10 µg/mL.
With B10, the “pseudovirus neutralization IC50” value was 4.51 µg/mL.
Take B11: the “pseudovirus neutralization IC50” value was greater than 10 µg/mL.
On the same count and under the same terms, next, B12: 0.00674 µg/mL; B13: 0.00504 µg/mL.

The next assay addresses SARS-CoV-2 Omicron BA.2.75 spike pseudovirus. Described as above. Here is the method:
as §1
Take B1: the “pseudovirus neutralization IC50” value was found to be 1.74 µg/mL.
Still for that read-out and setting: to B2 belongs 0.908 µg/mL; to B3, greater than 10 µg/mL; to B4, 0.0334 µg/mL.
Take B5: the “pseudovirus neutralization IC50” value is greater than 10 µg/mL.
Same read-out and setting: next, B6: 0.576 µg/mL; B7: 0.389 µg/mL; B8: greater than 10 µg/mL.
For B9, the “pseudovirus neutralization IC50” value was greater than 10 µg/mL.
Still for that read-out and setting: next, B10: 1.82 µg/mL.
Still for that read-out and setting: to B11 belongs greater than 10 µg/mL; to B12, greater than 10 µg/mL.
With B13, the “pseudovirus neutralization IC50” value is greater than 10 µg/mL.

Another assay addresses SARS-CoV-2 Omicron BA.5 spike pseudovirus. The description is as above. Here is the method:
as §1
Regarding B1, the “pseudovirus neutralization IC50” value came to 1.66 µg/mL.
For B2, the “pseudovirus neutralization IC50” value stood at 0.93 µg/mL.
B3: the “pseudovirus neutralization IC50” value was greater than 10 µg/mL.
Still for that read-out and setting: next, B4: 0.774 µg/mL.
As to B5, the “pseudovirus neutralization IC50” value is greater than 10 µg/mL.
The same measure, in the same setting: to B6 belongs 0.35 µg/mL.
Still for that read-out and setting: to B7 belongs 1.52 µg/mL.
Turning to B8, the “pseudovirus neutralization IC50” value is greater than 10 µg/mL.
Turning to B9, the “pseudovirus neutralization IC50” value is greater than 10 µg/mL.
B10: the “pseudovirus neutralization IC50” value amounted to 6.64 µg/mL.
As to B11, the “pseudovirus neutralization IC50” value was greater than 10 µg/mL.
Still for that read-out and setting: next, B12: 0.00761 µg/mL.
For the molecule B13, the “pseudovirus neutralization IC50” value was 0.0563 µg/mL.

A further assay addresses SARS-CoV-2 Omicron BQ.1.1 spike pseudovirus. The description is as above. Here is the method: as §1
With B1, the “pseudovirus neutralization IC50” value came to 2.1 µg/mL.
Regarding B2, the “pseudovirus neutralization IC50” value amounted to 0.754 µg/mL.
With B3, the “pseudovirus neutralization IC50” value was greater than 10 µg/mL.
Regarding B4, the “pseudovirus neutralization IC50” value is greater than 10 µg/mL.
Regarding B5, the “pseudovirus neutralization IC50” value was greater than 10 µg/mL.
For B6, the “pseudovirus neutralization IC50” value is 1.08 µg/mL.
On the same count and under the same terms, next, B7: 2.91 µg/mL; B8: greater than 10 µg/mL; B9: greater than 10 µg/mL.
Turning to B10, the “pseudovirus neutralization IC50” value was found to be 5.07 µg/mL.
As to B11, the “pseudovirus neutralization IC50” value is greater than 10 µg/mL.
For B12, the “pseudovirus neutralization IC50” value is greater than 10 µg/mL.
On the same count and under the same terms, to B13 belongs greater than 10 µg/mL.

The target of the next assay is SARS-CoV-2 Omicron XBB spike pseudovirus. The description is as above. Here is the method:
as §1
On to B1, for which the “pseudovirus neutralization IC50” value was 2.18 µg/mL.
On the same count and under the same terms, to B2 belongs 0.715 µg/mL.
The same measure, in the same setting: to B3 belongs greater than 10 µg/mL.
In the case of B4, the “pseudovirus neutralization IC50” value is greater than 10 µg/mL.
The same measure, in the same setting: next, B5: greater than 10 µg/mL; B6: 0.791 µg/mL; B7: 2.61 µg/mL.
Still for that read-out and setting: to B8 belongs greater than 10 µg/mL.
On to B9, for which the “pseudovirus neutralization IC50” value was greater than 10 µg/mL.
Same read-out and setting: to B10 belongs 5.89 µg/mL; to B11, greater than 10 µg/mL; to B12, greater than 10 µg/mL.
On the same count and under the same terms, to B13 belongs greater than 10 µg/mL.

For another assay, the target named is SARS-CoV-2 early D614G spike pseudovirus. The assay is described as above. The protocol: as §1
Take B1: the “pseudovirus neutralization IC50” value is 5.19 µg/mL.
Same read-out and setting: next, B2: greater than 10 µg/mL; B3: greater than 10 µg/mL.
Still for that read-out and setting: next, B4: 0.0661 µg/mL.
Same read-out and setting: next, B5: greater than 10 µg/mL; B6: 0.939 µg/mL.
For the molecule B7, the “pseudovirus neutralization IC50” value was 0.888 µg/mL.
Consider B8, for which the “pseudovirus neutralization IC50” value is greater than 10 µg/mL.
Same read-out and setting: to B9 belongs greater than 10 µg/mL; to B10, 0.372 µg/mL.
With B11, the “pseudovirus neutralization IC50” value was greater than 10 µg/mL.
As to B12, the “pseudovirus neutralization IC50” value is 0.0472 µg/mL.
For B13, the “pseudovirus neutralization IC50” value amounted to 0.0426 µg/mL.

These data come from the supplement of paper PMC9931576.
